This is an account of results in patent US5066783A (priority 1988, dated 1991).

The nature of this series: Boc solid-phase peptide synthesis; chloromethylated resin (1% cross linked); symmetrical anhydrides. The following applies: whole synthesis, overall.

Regarding “H-Tyr-Ala-Gly-Ala-Val-Val-Asn-Asp-Leu-OH”, the isolated yield is 74%.
